Reference: US20240228596A1 (VIB VZW, published 2024)

Target: SARS-COV-2 Wuhan WT Spike_del18 on VSV-delG pseudotyped particles (SARS-COV-2, UniProt P0DTC2 14-1255)
Test: cell-based or functional assay

| Binder | IC50 ug/ml, pseudoneutralization assay [µg/mL] |
| --- | --- |
| pX-B008_GS-VHH3-117-hc_(G4S)6_VHH3-83-hc-N85E_His8 (bispecific antibody) DVQLVESGGGLVQPGGSLRLSCAASGKAVSISDMGWYRQPPGKQRELVATITKTGSTNYADSAQGRFTISRDNTKSAVYLEMKSLRPEDTAVYYCNAWLPYGMGPDYYGMELWGKGTLVTVSSGGGGSGGGGSGGGGSGGGGSGGGGSGGGGSDVQLQESGGGLVQPGDSLRLSCVLSGGVFTSYAMGWFRQAPGKEREFLAAITFNSDATYYADSVKGRFTISRDNAKNTAYLQMNSLRPEDTAVYSCAAGGNHYNPQYYHDYDKYDHWGQGTLVTVSS | 0.196 |
| pX-B011_GS-VHH3-117-hc_(G4S)_VHH3-83-hc-N85E_His8 (bispecific antibody) DVQLVESGGGLVQPGGSLRLSCAASGKAVSISDMGWYRQPPGKQRELVATITKTGSTNYADSAQGRFTISRDNTKSAVYLEMKSLRPEDTAVYYCNAWLPYGMGPDYYGMELWGKGTLVTVSSGGGGSDVQLQESGGGLVQPGDSLRLSCVLSGGVFTSYAMGWFRQAPGKEREFLAAITFNSDATYYADSVKGRFTISRDNAKNTAYLQMNSLRPEDTAVYSCAAGGNHYNPQYYHDYDKYDHWGQGTLVTVSS | 0.609 |
